Some results come without the dose or concentration used.
Tested on: hBMSCs
Test: Bulk RNA-seq of cultured hBMSCs
Assay type: cell-based, human
Settings: padj<0.05
Description: ‐Sample Preparation: In accordance with the manufacturer's instructions, total RNA was extracted using Trizol from hBMSCs treated with Nutlin‐3 or CL144 as well as from control cells. Utilizing an Agilent Bioanalyzer RNA ScreenTape kit (Agilent, 5067–5576), the integrity of the RNA (RIN) was verified. All samples with RIN value > 8.0 were used for sequencing.
‐Library Construction: RNA‐seq libraries were constructed according to the manufacturer's instructions for the SRSLY Library Prep kit, which were provided by Claretbio (CBS‐K155B‐24). […] This work fragmented and enriched the mRNA using oligo (dT). After ligating the cDNA fragments to adapters, PCR amplification was performed.
‐Sequencing: The libraries were performed to sequencing on the Nextseq2000 (Illumina) platform, utilizing the SRSLY RNA NanoPlus kit to generate 100 bp paired‐end reads.
‐Data Analysis: FastQC was used to trim the adaptor sequences and remove low‐quality reads from the raw sequencing data (FASTQ files). After that, Hisat2 v2.2.1 was used to align these clean reads with the Human Genome Reference GRCh38. DESeq2 was used for differential expression analysis, while g: Profiler was used for GO enrichment analysis.

| Compound | differentially expressed genes (DEGs) versus Con |
| --- | --- |
| COc1ccc(C2=N[C@H](c3ccc(Cl)cc3)[C@H](c3ccc(Cl)cc3)N2C(=O)N2CCN(CC(=O)NCCCCCCCCOc3cccc4c3C(=O)N(C3CCC(=O)NC3=O)C4=O)C(=O)C2)c(OC(C)C)c1 (stereo in doubt) [CL144] | 6932 |
| COc1ccc(C2=N[C@@H](c3ccc(Cl)cc3)[C@@H](c3ccc(Cl)cc3)N2C(=O)N2CCNC(=O)C2)c(OC(C)C)c1 [Nutlin-3, reference compound] | 7745 |

Reference: PMC12097015, “Development of MDM2‐Targeting PROTAC for Advancing Bone Regeneration” (Advanced Science, 2025)
